Among the data in PMC3642679, “Architecture of the Pol III–clamp–exonuclease complex reveals key roles of the exonuclease subunit in processive DNA synthesis and repair” (The EMBO Journal, 2013) are binding result and Kd values, retold here.

Details in all cases: both partners purified
In test [1] the target is T1, Pol III residues 1-270 (E. coli, UniProt P10443 1-270).
T1 construct: DNA polymerase III α subunit, E. coli, N-terminal fragment (PHP domain, residues 1-270); also called Pol III^1–270; truncation to residue 270; source: E. coli BL21 (DE3), purified
T1 sequence (looked up): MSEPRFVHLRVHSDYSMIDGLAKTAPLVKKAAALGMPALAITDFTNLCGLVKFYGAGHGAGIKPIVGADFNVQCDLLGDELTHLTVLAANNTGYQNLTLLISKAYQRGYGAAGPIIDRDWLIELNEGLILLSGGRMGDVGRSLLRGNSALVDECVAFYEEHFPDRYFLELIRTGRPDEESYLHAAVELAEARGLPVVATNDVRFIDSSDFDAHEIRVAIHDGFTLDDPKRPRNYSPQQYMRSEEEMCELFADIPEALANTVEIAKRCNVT
Description: SEC; N-terminal fragments of Pol III (1-270, 1-285) with and without exonuclease; shift of the elution profile (Figure 2E).

In test [2] the target is T2, Pol III residues 1-285 (E. coli, UniProt P10443 1-285).
T2 construct: DNA polymerase III α subunit, E. coli, N-terminal fragment; source: E. coli BL21 (DE3), purified
T2 sequence (looked up): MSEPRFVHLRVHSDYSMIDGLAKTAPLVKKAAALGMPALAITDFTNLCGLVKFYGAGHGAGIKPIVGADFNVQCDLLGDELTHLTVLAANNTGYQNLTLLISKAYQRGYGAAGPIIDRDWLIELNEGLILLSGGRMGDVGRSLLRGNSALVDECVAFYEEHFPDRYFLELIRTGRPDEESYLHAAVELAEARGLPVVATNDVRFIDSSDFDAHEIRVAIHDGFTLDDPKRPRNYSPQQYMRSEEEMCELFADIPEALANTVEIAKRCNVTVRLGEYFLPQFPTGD
The test is described as above.

The target of test [3] is T3, DNA polymerase III α subunit (Pol III) (E. coli, UniProt P10443 1-1160).
T3 construct: DNA polymerase III α subunit, E. coli; Both an N-His6 and a non-tagged form were purified; source: E. coli BL21 (DE3), purified (N-His6: Histrap, Resource Q, Superdex 200; non-tagged: Source Q, Heparin, Resource Q, Superdex 200)
T3 sequence (looked up): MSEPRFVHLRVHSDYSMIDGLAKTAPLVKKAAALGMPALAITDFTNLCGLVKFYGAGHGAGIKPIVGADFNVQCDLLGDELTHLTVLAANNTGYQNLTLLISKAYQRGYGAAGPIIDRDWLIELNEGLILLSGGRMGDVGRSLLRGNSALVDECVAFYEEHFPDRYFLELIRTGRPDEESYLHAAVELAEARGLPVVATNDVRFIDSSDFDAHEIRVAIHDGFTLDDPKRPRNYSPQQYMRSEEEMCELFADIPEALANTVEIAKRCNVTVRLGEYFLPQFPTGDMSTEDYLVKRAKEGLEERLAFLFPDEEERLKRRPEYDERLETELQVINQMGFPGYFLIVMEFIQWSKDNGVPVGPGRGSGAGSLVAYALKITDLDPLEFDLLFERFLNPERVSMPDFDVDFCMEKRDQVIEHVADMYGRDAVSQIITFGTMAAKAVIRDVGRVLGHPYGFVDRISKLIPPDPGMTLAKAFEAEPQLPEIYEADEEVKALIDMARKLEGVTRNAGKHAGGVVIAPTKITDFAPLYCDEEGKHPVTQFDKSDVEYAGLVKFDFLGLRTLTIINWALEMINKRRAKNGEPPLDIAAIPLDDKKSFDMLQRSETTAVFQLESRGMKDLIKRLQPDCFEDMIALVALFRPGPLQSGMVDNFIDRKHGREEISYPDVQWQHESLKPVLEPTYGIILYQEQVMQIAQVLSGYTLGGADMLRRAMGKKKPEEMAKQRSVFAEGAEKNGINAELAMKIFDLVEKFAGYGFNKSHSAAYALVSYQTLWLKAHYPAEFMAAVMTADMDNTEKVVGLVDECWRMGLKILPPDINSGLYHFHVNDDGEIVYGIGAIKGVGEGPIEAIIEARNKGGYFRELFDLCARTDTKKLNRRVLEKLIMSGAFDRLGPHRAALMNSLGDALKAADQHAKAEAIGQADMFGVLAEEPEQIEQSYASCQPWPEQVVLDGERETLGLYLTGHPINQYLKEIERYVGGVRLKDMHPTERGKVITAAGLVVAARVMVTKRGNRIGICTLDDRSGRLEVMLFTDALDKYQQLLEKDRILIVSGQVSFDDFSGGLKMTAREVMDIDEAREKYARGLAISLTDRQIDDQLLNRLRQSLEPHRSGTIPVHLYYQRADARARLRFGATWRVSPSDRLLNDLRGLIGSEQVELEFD
Nature of the test: SEC; as a1 with the exonuclease added: Pol III (wild type or C-terminal deletions) + exonuclease + clamp; wild type at 1.5, 5 and 10 μM; Superdex 200; 50 mM Hepes pH 7.5, 150 mM NaCl, 2 mM DTT; fractions by SDS-PAGE; KD estimated from two Gaussians of the clamp profile.

Test [4] has as its target T4, Pol III–exonuclease complex (E. coli, UniProt P10443 1-1160; P03007 1-243).
T4 construct: DNA polymerase III α subunit, E. coli; as m1; DNA polymerase III ε subunit (exonuclease), E. coli; as m3; The partner of the clamp in the samples with all three proteins; source: E. coli BL21 (DE3), each protein purified, then mixed
T4 sequence (looked up) 1: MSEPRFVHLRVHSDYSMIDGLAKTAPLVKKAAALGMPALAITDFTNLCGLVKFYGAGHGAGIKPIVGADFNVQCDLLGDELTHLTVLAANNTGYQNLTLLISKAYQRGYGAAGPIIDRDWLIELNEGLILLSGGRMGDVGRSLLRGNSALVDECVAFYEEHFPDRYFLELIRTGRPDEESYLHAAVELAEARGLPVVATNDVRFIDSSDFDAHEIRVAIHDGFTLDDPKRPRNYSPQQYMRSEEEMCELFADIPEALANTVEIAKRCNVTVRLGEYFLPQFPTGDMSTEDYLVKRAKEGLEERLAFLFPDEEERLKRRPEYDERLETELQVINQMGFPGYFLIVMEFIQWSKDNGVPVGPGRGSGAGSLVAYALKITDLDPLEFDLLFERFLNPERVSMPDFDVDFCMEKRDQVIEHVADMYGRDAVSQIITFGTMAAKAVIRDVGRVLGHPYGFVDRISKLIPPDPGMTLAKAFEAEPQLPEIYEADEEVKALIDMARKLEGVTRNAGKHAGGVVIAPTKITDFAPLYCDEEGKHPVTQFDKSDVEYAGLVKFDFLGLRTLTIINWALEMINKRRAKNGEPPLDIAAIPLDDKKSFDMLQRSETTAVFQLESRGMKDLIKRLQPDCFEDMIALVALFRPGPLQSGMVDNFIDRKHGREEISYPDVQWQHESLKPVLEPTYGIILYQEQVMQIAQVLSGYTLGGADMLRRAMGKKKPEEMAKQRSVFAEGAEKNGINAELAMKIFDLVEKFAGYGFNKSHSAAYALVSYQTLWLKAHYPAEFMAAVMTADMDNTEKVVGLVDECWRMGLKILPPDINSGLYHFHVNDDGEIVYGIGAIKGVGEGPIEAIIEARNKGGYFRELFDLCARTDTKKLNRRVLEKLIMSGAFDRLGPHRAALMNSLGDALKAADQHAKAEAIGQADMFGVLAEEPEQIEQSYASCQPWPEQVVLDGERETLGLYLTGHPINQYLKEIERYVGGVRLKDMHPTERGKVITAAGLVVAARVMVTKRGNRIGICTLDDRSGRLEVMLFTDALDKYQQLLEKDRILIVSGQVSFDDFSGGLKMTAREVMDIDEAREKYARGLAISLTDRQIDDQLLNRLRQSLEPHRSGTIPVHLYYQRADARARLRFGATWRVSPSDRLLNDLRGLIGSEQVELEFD
T4 sequence (looked up) 2: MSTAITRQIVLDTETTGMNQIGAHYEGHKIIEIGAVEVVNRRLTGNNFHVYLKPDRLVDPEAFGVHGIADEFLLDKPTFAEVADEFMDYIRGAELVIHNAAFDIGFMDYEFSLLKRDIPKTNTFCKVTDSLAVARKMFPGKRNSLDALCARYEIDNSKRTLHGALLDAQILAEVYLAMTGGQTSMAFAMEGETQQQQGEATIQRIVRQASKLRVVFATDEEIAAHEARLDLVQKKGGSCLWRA
The test is described as above.

The target of test [5] is T3, DNA polymerase III α subunit (Pol III). Nature of the test: SEC; Pol III (wild type, M923A+F924A or C-terminal deletions) mixed with clamp; wild type at 1.5, 5 and 10 μM; 50 μl on a PC3.2/30 Superdex 200 column; 50 mM Hepes pH 7.5, 150 mM NaCl, 2 mM DTT; fractions by SDS-PAGE, band intensities; KD estimated from a sum of two Gaussians fitted to the clamp profile, corrected five-fold for dilution, average of nine experiments.

B1: exonuclease (ε subunit) (enzyme, E. coli, UniProt P03007 1-243, looked up)
chain: MSTAITRQIVLDTETTGMNQIGAHYEGHKIIEIGAVEVVNRRLTGNNFHVYLKPDRLVDPEAFGVHGIADEFLLDKPTFAEVADEFMDYIRGAELVIHNAAFDIGFMDYEFSLLKRDIPKTNTFCKVTDSLAVARKMFPGKRNSLDALCARYEIDNSKRTLHGALLDAQILAEVYLAMTGGQTSMAFAMEGETQQQQGEATIQRIVRQASKLRVVFATDEEIAAHEARLDLVQKKGGSCLWRA
notes: DNA polymerase III ε subunit (proofreading exonuclease), E. coli; A non-tagged form was obtained by removal of the His6 tag with human rhinovirus 3C protease
B1: the binding result in test [1], in test [2] and in test [3] was “binds” in each case.

B2: DNA sliding clamp (β subunit) (natural protein, E. coli, UniProt P0A988 1-366, looked up)
chain: MKFTVEREHLLKPLQQVSGPLGGRPTLPILGNLLLQVADGTLSLTGTDLEMEMVARVALVQPHEPGATTVPARKFFDICRGLPEGAEIAVQLEGERMLVRSGRSRFSLSTLPAADFPNLDDWQSEVEFTLPQATMKRLIEATQFSMAHQDVRYYLNGMLFETEGEELRTVATDGHRLAVCSMPIGQSLPSHSVIVPRKGVIELMRMLDGGDNPLRVQIGSNNIRAHVGDFIFTSKLVDGRFPDYRRVLPKNPDKHLEAGCDLLKQAFARAAILSNEKFRGVRLYVSENQLKITANNPEQEEAEEILDVTYSGAEMEIGFNVSYVLDVLNALKCENVRMMLTDSVSSVQIEDAASQSAAYVVMPMRL
notes: DNA polymerase III β subunit (sliding clamp), E. coli; the clamp is composed of two β monomers; Both an N-His6 and a non-tagged form were purified; source: E. coli BL21 (DE3), purified (N-His6: Histrap, Superdex 200; non-tagged: Phenyl sepharose, Hitrap Q, Hitrap SP)
The term Kd denotes a measure of binding affinity in units of concentration. As to B2, the figures for the Kd in test [4] and in test [5] were 300 ± 100 nM and 1200 ± 200 nM, respectively.
